Data as given in article PMC11774319, “The Legionella pneumophila effector PieF modulates mRNA stability through association with eukaryotic CCR4−NOT” (mSphere, 2024).

Target: T1, untagged catalytically active CNOT7, purified (human, UniProt Q9UIV1 1-285)
T1 construct: also called untagged CNOT7; 6xHis-CNOT7 (tag kept, in the deadenylation assay)
Assay: BLI
Settings: both partners purified

B1: 6xHis-SBP-tagged PieF (Lpg1972) (natural protein)
chain: MKRLIICNGNKLTVCTQAISSGGIVEKYTPIFSLTKESDNELTLELSGVARGYYIIPSELTSSQARAAHLITLLTRAEESQTTDMHKILNSFVSGKITSGSMFNFENDGSFKREPEEAYNLINKI
Kd: 70.4 nM
